Reference: patent publication US9212177B2, “Antiviral compounds and methods of making and using thereof” (Versitech Limited, priority 2009, dated 2015)
Which two values form the index is not stated here.

tested on: Influenza A H1N1\WSN\33; type: cell-based, Influenza A virus

SMILES	Selective Index (SI)
Cc1onc(-c2ccccc2Cl)c1C(=O)N1CCN(c2ccc([N+](=O)[O-])cc2Cl)CC1 [Compound 5, [4-(2-chloro-4-nitro-pheny1)-piperazin-1-yl]-[3-(2-chloro-phenyl)-5-methylisoxazol-4-yl]-methanone]	>6250
Cc1onc(-c2ccc(N=[N+]=[N-])cc2)c1C(=O)N1CCN(c2ccc([N+](=O)[O-])cc2Cl)CC1 [Compound 4, [4-(2-chloro-4-nitro-pheny1)-piperazin-1-yl]-[3-(4-azido-pheny1)-5-methylisoxazol-4-yl]-methanone]	>1000
Cc1onc(-c2ccc(O)cc2)c1C(=O)N1CCN(c2ccc([N+](=O)[O-])cc2Cl)CC1 [Compound 1, [4-(2-chloro-4-nitro-pheny1)-piperazin-1-yl]-[3-(4-hydroxy-pheny1)-5-methylisoxazol-4-yl]-methanone]	>5000
Cc1onc(-c2ccccc2Cl)c1C(=O)N1CCN(c2ccc([N+](=O)[O-])cc2)CC1 [Compound 8, [4-(4-nitro-pheny1)-piperazin-1-yl]-[3-(2-chloro-phenyl)-5-methyl-isoxazol-4-yl]-methanone]	>49
